Measured values from several laboratories, pooled; numbers as filed in NIAID ChemDB.

All rows: tests in culture

Percent inhibition refers to the dose given; in toxicity tests it is the harm to the cells.

compound	species	strain or isolate	cells	method	read-out	tested at	result
CCCCC[C@H](O)/C=C/C1[C@H](O)CC(=O)[C@@H]1CCCCCCC(=O)O	Herpes simplex virus 1	KOS	HeLa	cytopathic effect	EC50		>4 µg/mL
O=C(NCc1ccc(Cl)cc1)c1cn2c(CO)cc3cc(CN4CCOCC4)cc(c1=O)c32	Herpes simplex virus				EC50		<0.02 µM
CCOC(=O)CP(=O)(OC)OC[C@H]1O[C@@H](n2cc(I)c(=O)[nH]c2=O)C[C@@H]1O	Herpes simplex virus 2	K979	VERO	cytopathic effect	inhibition	57.9 µM	>25%
COC(=O)[C@@H]1c2cc3c(c(O)c2[C@@H](OC2OC(C)C(OC)C(C)(OC)C2OC)C[C@]1(C)O)C(=O)c1c(O)cc2c(c1C3=O)O[C@H]1O[C@]2(C)[C@H](O)[C@@H](N(C)C)[C@@H]1O	Herpes simplex virus 1	KOS	HeLa	cytopathic effect	EC50		>200 µg/mL
Nc1ncnc2c1ncn2C[C@@H](CO)OCP(=O)(O)O	Herpes simplex virus 1	PMEA-resistant-1	HeLa	virus yield	EC90		14 µM
CC(=O)O[C@@H]1OC(=O)[C@](C)(C(C)=O)[C@@H]1C	Herpes simplex virus 1	KOS	HeLa	cytopathic effect	EC50		>200 µg/mL
Nc1nc(=O)n([C@@H]2O[C@H](CO)[C@@H](O)[C@@H]2F)cc1I	Herpes simplex virus 1	KOS PMEDAP-resistant	HEL	cytopathic effect	EC50		0.004 µg/mL
CCC#Cc1ccc2c(c1)c(=O)c(C(=O)NCc1ccc(Cl)cc1)nn2C	Herpes simplex virus				inhibition	20 µM	90%
O=C(O)P(=O)(O)O	Herpes simplex virus 1	PFA-resistant-2	HeLa	virus yield	EC90		>1000 µM
C/C=C/C=C/[C@@H]1O[C@](O)([C@H](OC)C(=O)NC/C=C/C=C(/C)[C@@H](OC)[C@@H](C)[C@@H]2O[C@H](/C=C/C=C/C=C(\C)C(=O)c3c(O)cc[nH]c3=O)[C@H](O)[C@@H]2O)[C@H](O)[C@H](O)C1(C)C	Herpes simplex virus 1	KOS	HeLa	cytopathic effect	EC50		>100 µg/mL
CCc1cn([C@H]2C[C@H](O)[C@@H](CO)O2)c(=O)[nH]c1=O	Herpes simplex virus			cytopathic effect	EC50		2 µg/mL
Nc1nc(N)c2ncn(CCOCP(=O)(O)O)c2n1	Herpes simplex virus 1	KOS PMEA-resistant	HEL	cytopathic effect	EC50		32.7 µg/mL
O=C(O)P(=O)(O)O	Herpes simplex virus 2	V10183	SIRC	plaque count	inhibition	500 µM	>99.9%
O=C(NCc1ccc(Cl)cc1)c1n[nH]c2ccccc2c1=O	Herpes simplex virus				EC50		1.7 µM
Nc1ccn(C[C@@H](CO)OCP(=O)(O)O)c(=O)n1	Herpes simplex virus 1	KOS HPMPC-resistant	HEL	cytopathic effect	EC50		2.9 µg/mL
CO[C@H](C)[C@@H](NC(=O)[C@@H]1CCCN1C)[C@@H]1O[C@@H](SCCOC(=O)c2ccccc2O)[C@@H](O)[C@H](O)[C@H]1O	Herpes simplex virus 1	KOS	HeLa	cytopathic effect	EC50		>200 µg/mL
O=C(O)CP(=O)(O)O	Herpes simplex virus 1	KOS HPMPC-resistant	HEL	cytopathic effect	EC50		9.3 µg/mL
C[C@H]1c2cccc(O)c2C(O)=C2C(=O)[C@]3(O)C(O)=C(C(N)=O)C(=O)[C@@H](N(C)C)[C@@H]3[C@@H](O)[C@@H]21	Herpes simplex virus 1	KOS	HeLa	cytopathic effect	EC50		>100 µM
Nc1ncnc2c1ncn2CCOCP(=O)(O)O	Herpes simplex virus 1	KOS ACV-resistant	HEL	cytopathic effect	EC50		15.8 µg/mL
COc1ccc2c(c1OC)C(=O)O[C@@H]2[C@H]1c2cc3c(cc2CCN1C)OCO3	Herpes simplex virus 1	KOS	HeLa	cytopathic effect	EC50		>400 µg/mL
CCOC(=O)P(=O)(O)OCCOCn1cnc2c(=O)[nH]c(N)nc21	Herpes simplex virus 1	L2	VERO	cytopathic effect	EC95		661 µM
O=c1[nH]c(=O)n([C@H]2C[C@H](O)[C@@H](CO)O2)cc1/C=C/Br	Herpes simplex virus 1	KOS HPMPA-resistant	HEL	cytopathic effect	EC50		0.005 µg/mL

The last 2 rows once more:

compound | species | strain or isolate | cells | method | read-out | tested at | result
CCOC(=O)P(=O)(O)OCCOCn1cnc2c(=O)[nH]c(N)nc21 | Herpes simplex virus 1 | L2 | VERO | cytopathic effect | EC95 |  | 661 µM
O=c1[nH]c(=O)n([C@H]2C[C@H](O)[C@@H](CO)O2)cc1/C=C/Br | Herpes simplex virus 1 | KOS HPMPA-resistant | HEL | cytopathic effect | EC50 |  | 0.005 µg/mL

Blank or dashed fields: not listed here. ECn is the concentration giving n% inhibition of infection, replication or growth. Rows are shuffled and stem from different studies.